Measured values from several laboratories, pooled; numbers as filed in NIAID ChemDB.

Shared fields: whole-cell or culture tests; organism: Varicella zoster virus; endpoint: EC50

Rows are shuffled and stem from different studies. ECn is the concentration giving n% inhibition of infection, replication or growth. An empty or dashed field is not shown.

SMILES | read by | cells | strain | value
Nc1ncnc2c1ncn2C[C@@H](CO)OCP(=O)(O)O | cytopathic effect | HEL | Oka CF1603-resistant | 0.028 µM
Cc1cn(CCCC(O)CF)c(=O)[nH]c1=O | cytopathic effect | HEL | YS | >50 µg/mL
O=c1[nH]c(=O)n([C@H]2C[C@H](O)[C@@H](CO)O2)cc1I | plaque count | HEL | 18 | 1.6 µg/mL
O=C(O)P(=O)(O)O | cytopathic effect | HEL | Clinical isolate VZV-27 | 81.5 µM
CCCc1cn([C@H]2C[C@H](O)[C@@H](CO)O2)c(=S)[nH]c1=O | plaque count | MRC-5 | Kanno-Kohmura (TK-) | >277.6 µM
Nc1ccn(C(CF)CCCO)c(=O)n1 | cytopathic effect | HEL | 07-01/TK- | >50 µg/mL
Nc1ncnc2c1ncn2[C@@H]1C[C@H](CO)[C@@H](O)[C@@H]1O | plaque count | HEL | OKA-H12 | 1.2 µg/mL
Cc1c(Br)cc(Br)c2ncc(CSCc3ccc(F)cc3)n12 | plaque count | HEL | 07/1 (TK-) | >5 µg/mL
Nc1nc2c(ncn2CCC(CO)CO)c(=O)[nH]1 | cytopathic effect | HEL | Clinical isolate VZV-31 | 2 µM
Nc1ncnc2c1ncn2[C@@H]1C=C(CO)[C@@H](O)[C@H]1O | cytopathic effect | HeLa | 07/1 YS/R (TK-) | 40 µg/mL
Cc1ccc(CSCc2cnc3c(Br)cc(Br)c(C)n23)cc1 | plaque count | HEL | OKA (TK+) | >20 µg/mL
O=C(O)CP(=O)(O)O | cytopathic effect | HEL | Oka CF1603-resistant | 42.4 µM
CC(O)c1cn([C@@H]2O[C@H](CO)[C@@H](O)[C@@H]2O)c(=S)[nH]c1=O | plaque count | MRC-5 | Kanno-Kohmura (TK-) | >263.5 µM
Nc1ncnc2c1ncn2CCCC(O)CF | cytopathic effect | HEL | YS | >50 µg/mL
CCCCCCCCc1cc2cn([C@H]3C[C@H](F)[C@@H](CO)O3)c(=O)nc2o1 |  |  | OKA | >20 µM
Cc1c(Br)cc(Br)c2ncc(CSCc3ccccc3F)n12 | plaque count | HEL | 07/1 (TK-) | >5 µg/mL
C=Cc1cn([C@@H]2O[C@H](CO)[C@@H](O)[C@@H]2O)c(=S)nc1N | plaque count | MRC-5 | CAQU (TK+) | >266.3 µM
Nc1ccn(C[C@@H](CO)OCP(=O)(O)O)c(=O)n1 | cytopathic effect | HEL | Oka CF1603-resistant | 0.15 µM
Cc1ccccc1CSCc1cnc2c(Br)cc(Br)c(C)n12 | plaque count | HEL | YS/R (TK-) | 3.2 µg/mL
CCOC(=O)/C=C\C=C\[C@H]1O[C@@H](n2ccc(=O)[nH]c2=O)[C@H](O)[C@@H]1O |  | HEL | YS/R | 10 µM
Cc1cccn2c(CSCc3ccccc3)cnc12 | plaque count | HEL | 07/1 (TK-) | 0.4 µg/mL
O=c1[nH]c(=S)n([C@@H]2O[C@H](CO)[C@@H](O)[C@@H]2O)cc1/C=C/Br | plaque count | MRC-5 | HOSEN (TK+) | 5.3 µM
O=C(NCc1ccc(Cl)cc1)c1c[nH]c2ccc(C#CCO)cc2c1=O | plaque count |  | RAI | 0.1 µM
Cc1c(Br)cc(Br)c2ncc(CSCc3ccc(Cl)cc3)n12 | plaque count | HEL | YS/R (TK-) | 2.9 µg/mL

For reference, 2 entries again:

SMILES	read by	cells	strain	value
O=C(O)CP(=O)(O)O	cytopathic effect	HEL	Oka CF1603-resistant	42.4 µM
C=Cc1cn([C@@H]2O[C@H](CO)[C@@H](O)[C@@H]2O)c(=S)nc1N	plaque count	MRC-5	CAQU (TK+)	>266.3 µM